Measurements reported in PubChem BioAssay AID504761 (Drosophila RNAi Screening Center, 2011).
Screen: 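Fly genes whose silencing reduces dengue virus type 2 infection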 (primary screen). Cells: D.Mel-2 cells from Drosophila. Knock-down reagent: long dsRNA against Drosophila genes. Treatment: infection with dengue virus type 2; dose and infection time not stated. Measurement: 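Cells stained for dengue envelope protein and imaged; percent of infected cells per well on duplicate plates, ranked by infection, with stained nuclei counted for cell number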. Scale: infection score: higher = more virus-infected cells; cell count: higher = more cells in the well. Rule for the call: 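Very low infection ranking in both replicate wells (chance probability at most 0.065), then a retest showing infection dropped 1.5-fold or more at p below 0.05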. Calls: active = confirmed: knock-down lowers infection; inactive = not picked or not confirmed.
The deposit covers about 22,000 reagents; this is a random part of those that have a named target and a result. In the full data, 116 (0.52%) were called active. 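Calls depend on retest data that are not deposited; infection was ranked per plate without normalising between plates; the unit of the infection score is not given.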 Raw values vary from plate to plate and are shown uncorrected. Entries without a mark were called inactive. Reagents against one gene are numbered here. The record does not give: the amount of reagent, the time to read-out.

With knock-down of Alp6 (Alkaline phosphatase 6) the results were infection score, replicate 1 = 22.2; infection score, replicate 2 = 8.38; cell count, replicate 1 = 5218; cell count, replicate 2 = 6180.
Depletion of Lcp4 (Larval cuticle protein 4) #1 resulted in: infection score, replicate 1 = 10.4; infection score, replicate 2 = 11.7; cell count, replicate 1 = 5824; cell count, replicate 2 = 6559.
Against Lcp4 (Larval cuticle protein 4) #2 the deposit lists infection score, replicate 1 = 1.13; infection score, replicate 2 = 2.12; cell count, replicate 1 = 6195; cell count, replicate 2 = 6035.
CG7183 showed infection score, replicate 1 = 19.3; infection score, replicate 2 = 25.3; cell count, replicate 1 = 5811; cell count, replicate 2 = 5983.
After knock-down of CG15406 #1 the results were infection score, replicate 1 = 1.99; infection score, replicate 2 = 1.32; cell count, replicate 1 = 6475; cell count, replicate 2 = 6674.
After knock-down of CG15406 #2 the results were infection score, replicate 1 = 6.46; infection score, replicate 2 = 17.8; cell count, replicate 1 = 6103; cell count, replicate 2 = 6477.
With knock-down of p24-1 (p24-related-1) #1, the screen gave infection score, replicate 1 = 12.3; infection score, replicate 2 = 3.15; cell count, replicate 1 = 5579; cell count, replicate 2 = 6609.
Against p24-1 (p24-related-1) #2, the values are infection score, replicate 1 = 1.6; infection score, replicate 2 = 1.85; cell count, replicate 1 = 6331; cell count, replicate 2 = 6598.
After knock-down of CG32984 #1 the results were infection score, replicate 1 = 0.46; infection score, replicate 2 = 10.8; cell count, replicate 1 = 5610; cell count, replicate 2 = 5594.
With knock-down of CG32984 #2 the results were infection score, replicate 1 = 13; infection score, replicate 2 = 23.2; cell count, replicate 1 = 3906; cell count, replicate 2 = 5972.

Copied from the listing (2 entries):
Alp6 (Alkaline phosphatase 6) — infection score, replicate 1 = 22.2; infection score, replicate 2 = 8.38; cell count, replicate 1 = 5218; cell count, replicate 2 = 6180
Lcp4 (Larval cuticle protein 4) #1 — infection score, replicate 1 = 10.4; infection score, replicate 2 = 11.7; cell count, replicate 1 = 5824; cell count, replicate 2 = 6559

The list goes on.
With knock-down of Vps60 (Vacuolar protein sorting 60) the results were infection score, replicate 1 = 4.21; infection score, replicate 2 = 10.6; cell count, replicate 1 = 6060; cell count, replicate 2 = 6366.
For alpha-Est9 (alpha-Esterase-9), the values are infection score, replicate 1 = 3.32; infection score, replicate 2 = 1.28; cell count, replicate 1 = 6451; cell count, replicate 2 = 6693.
With knock-down of Ran #1 the results were infection score, replicate 1 = 16.7; infection score, replicate 2 = 13; cell count, replicate 1 = 1132; cell count, replicate 2 = 1156.
Against Ran #2, the entry reads infection score, replicate 1 = 11.3; infection score, replicate 2 = 12.2; cell count, replicate 1 = 1602; cell count, replicate 2 = 1367.
Depletion of CG31496 #1 resulted in: infection score, replicate 1 = 4.18; infection score, replicate 2 = 7.24; cell count, replicate 1 = 6657; cell count, replicate 2 = 5981.
CG31496 #2 scored infection score, replicate 1 = 11; infection score, replicate 2 = 4; cell count, replicate 1 = 6532; cell count, replicate 2 = 6798.
Against alpha-Spec (alpha Spectrin), the entry reads infection score, replicate 1 = 8.5; infection score, replicate 2 = 17.1; cell count, replicate 1 = 6539; cell count, replicate 2 = 5187.
Against CG13010 #1, the values are infection score, replicate 1 = 3.33; infection score, replicate 2 = 2.66; cell count, replicate 1 = 6901; cell count, replicate 2 = 6885.
Knock-down of CG13010 #2 resulted in: infection score, replicate 1 = 30.9; infection score, replicate 2 = 16.1; cell count, replicate 1 = 5779; cell count, replicate 2 = 6123.
After knock-down of CG14621 #1, the screen gave infection score, replicate 1 = 6.18; infection score, replicate 2 = 2.26; cell count, replicate 1 = 5810; cell count, replicate 2 = 5706.
For CG14621 #2, the values are infection score, replicate 2 = 3.5; cell count, replicate 2 = 3571.
